Compound potency records, mixed from different reports. Data source: NIAID ChemDB in PubChem.

Shared fields: whole-cell or culture tests; agent: HIV-1; cells: CEM; read by: syncytia; endpoint: EC50

An empty or dashed field is not shown. ECn is the concentration giving n% inhibition of infection, replication or growth. Neighbouring rows are from separate reports.

structure	changes	strain	result
CC(C)=CCN1Cc2cc(Cl)cc3[nH]c(=S)n(c23)C[C@@H]1C	RT-Y181C	IIIB-TSAO-m3T(10)(RT-Y181C)	0.3 µg/mL
Nc1ncnc2c1ncn2CCOCP(=O)(O)O	RT-L100I	IIIB TIBO R82150-resistant (RT L100I)	15 µM
CCc1cc(NCc2nc3c(Cl)ccc(Cl)c3o2)c(=O)[nH]c1C	RT-Y181C	IIIB E-EBU(RT-Y181C)	>10 µg/mL
Nc1ccn([C@H]2CC[C@@H](CO)O2)c(=O)n1	RT-L100I	IIIB-BHAP)(0.1)(RT-L100I	0.02 µM
N#CCN1C(=O)N(Cc2ccccc2)S(=O)(=O)c2cscc21	RT-Y188H	-	≥60 µM
Cc1c(Sc2ccccc2)n(COCCO)c(=O)[nH]c1=O	RT-L100I	IIIB BHAP(RT-L100I)	40 µg/mL
CCn1c(=O)c(C)cn([C@@H]2O[C@H](CO[Si](C)(C)C(C)(C)C)C3(OS(=O)(=O)C=C3N)[C@H]2O[Si](C)(C)C(C)(C)C)c1=O	RT-K103N	IIIB TIBO R82913 STR-2 (RT K103N)	0.32 µM
Nc1ncnc2c1ncn2CCOCP(=O)(O)O	RT-L100I	IIIB-TIBO(0.5)(RT-L100I)	7.5 µM
Cc1cn([C@@H]2O[C@H](CO[Si](C)(C)C(C)(C)C)C3(OS(=O)(=O)C=C3N)[C@H]2O[Si](C)(C)C(C)(C)C)c(=O)n(C)c1=O	RT-E138K	IIIB TSAO-T(RT-E138K)	>50 µM
CCOCn1c(Sc2ccccc2)c(CC)c(=O)[nH]c1=O	RT-L100I	IIIB BHAP(RT-L100I)	0.03 µg/mL
CCN1C(=O)N(Cc2cccc(Cl)c2)S(=O)(=O)c2cscc21	RT-Y181C	-	>56 µM
CCOCn1c(Cc2cc(C)cc(C)c2)c(CC)c(=O)[nH]c1=O	-	IIIB	0.001 µM
CCn1c(=O)c(C)cn([C@@H]2O[C@H](CO[Si](C)(C)C(C)(C)C)C3(OS(=O)(=O)C=C3N)[C@H]2O[Si](C)(C)C(C)(C)C)c1=O	RT-Y188H	IIIB HEPT-resistant (RT Y188H)	>50 µg/mL
Cc1cn([C@@H]2O[C@H](CO[Si](C)(C)C(C)(C)C)C3(OS(=O)(=O)C=C3N)[C@H]2O[Si](C)(C)C(C)(C)C)c(=O)n(C)c1=O	RT-Y181C	IIIB-Nevirapine(0.1)(RT-Y181C)	0.78 µg/mL
N#CCN1C(=O)N(Cc2cccc(F)c2)S(=O)(=O)c2cscc21	RT-E138K	-	2.9 µM
CC(C)=CCN1Cc2cc(Cl)cc3[nH]c(=S)n(c23)C[C@@H]1C	RT-L100I	IIIB BHAP(RT-L100I)	0.27 µg/mL
Cc1ccnc2c1NC(=O)c1cccnc1N2C1CC1	RT-L100I	-	0.3 µM
CC(C)=CCN1Cc2cccc3[nH]c(=S)n(c23)C[C@@H]1C	RT-L100I E138K	IIIB TIBO R82913 STR-B02 (RT L100I E138K)	5 µM

3 of the rows above, restated:

CCOCn1c(Sc2ccccc2)c(CC)c(=O)[nH]c1=O ; changes: RT-L100I ; strain: IIIB BHAP(RT-L100I) ; result: 0.03 µg/mL
CCOCn1c(Cc2cc(C)cc(C)c2)c(CC)c(=O)[nH]c1=O ; strain: IIIB ; result: 0.001 µM
CCn1c(=O)c(C)cn([C@@H]2O[C@H](CO[Si](C)(C)C(C)(C)C)C3(OS(=O)(=O)C=C3N)[C@H]2O[Si](C)(C)C(C)(C)C)c1=O ; changes: RT-K103N ; strain: IIIB TIBO R82913 STR-2 (RT K103N) ; result: 0.32 µM